One experiment has as its system Escherichia coli. The experiment in a line: Antibacterial activity against Escherichia coli DH5[alpha] after 24 hrs by disc diffusion assay. For orientation: Agar diffusion results depend on both activity and mobility in agar.
The subject of a further experiment is Brevundimonas. As to the kind of experiment: Antibacterial activity against Brevundimonas sp. isolate Fs30 after 24 hrs by disc diffusion assay.
The next experiment concerns Kocuria. The experiment in a line: Antibacterial activity against Kocuria sp. isolate Fs24 after 24 hrs by disc diffusion assay.
A further experiment concerns Gordonia sp. As to the kind of experiment: Antibacterial activity against Gordonia sp. isolate Fs48 after 24 hrs by disc diffusion assay.
For the next experiment, the system named is Bacillus subtilis. As to the kind of experiment: Antibacterial activity against Bacillus subtilis after 24 hrs by disc diffusion assay.

Molecules are shown by their SMILES. Values joined by “and” are separate entries in the source; they are usually repeats but may differ in a detail not shown here. Identical values can stand only once.

Turning to `CCOP(=O)(OCC)C1CN1Cc1ccccc1` (stereo not given), the inhibition zone (IZ) in the experiment with Escherichia coli turned out to be 8 mm; in the experiment on Brevundimonas it was 13.7 mm; in the experiment with Kocuria, 18 mm; in the experiment on Gordonia sp., 13 mm; in the experiment with Bacillus subtilis it was 10 mm.

As to `CCOP(=O)(OCC)C1CN1C(C)C` (stereo not given), the inhibition zone (IZ) in the experiment on Escherichia coli is 9 mm; in the experiment on Brevundimonas it was 16 mm; in the experiment on Kocuria, 19 mm; in the experiment with Gordonia sp. it was 15.7 mm; in the experiment with Bacillus subtilis, 19.3 mm.

On to `CCOP(=O)(OCC)C1CN1[C@H](CC)CO` (stereo not given in full), for which the inhibition zone (IZ) is 10.7 mm and 20 mm in the experiment on Escherichia coli; 20 mm and 13 mm with Brevundimonas; 25 mm and 18.7 mm with Kocuria; 11 mm and 15.3 mm in the experiment with Gordonia sp.; 11 mm and 17 mm with Bacillus subtilis.

For the molecule `CCOP(=O)(OCC)C1CN1` (stereo not given), the inhibition zone (IZ) with Escherichia coli turned out to be 11.3 mm; in the experiment with Brevundimonas, 12.3 mm; in the experiment with Kocuria, 12.3 mm; with Gordonia sp. it was 11.7 mm; with Bacillus subtilis, 11.3 mm.

As for `CCOP(=O)(OCC)C1CN1Cc1ccco1` (stereo not given), the inhibition zone (IZ) came to 13.3 mm with Escherichia coli; 15 mm in the experiment with Brevundimonas; 14.7 mm in the experiment with Kocuria; 14.7 mm in the experiment on Gordonia sp.; 10.3 mm in the experiment with Bacillus subtilis.

`CCOP(=O)(OCC)C1CN1C1CCCCC1` (stereo not given): the inhibition zone (IZ) in the experiment with Escherichia coli stood at 10 mm; in the experiment with Brevundimonas, 14.3 mm; in the experiment with Kocuria, 18.3 mm; in the experiment on Gordonia sp. it was 23.3 mm; with Bacillus subtilis, 9.66 mm.

Regarding `CCOP(=O)(OCC)C1CN1[C@H](CC)c1ccccc1` (stereo not given in full), the inhibition zone (IZ) in the experiment with Escherichia coli was 13 mm and 12 mm; in the experiment with Brevundimonas, 13.7 mm and 13.3 mm; in the experiment on Kocuria, 12 mm and 19 mm; in the experiment on Gordonia sp., 13.3 mm and 16.3 mm; in the experiment on Bacillus subtilis it was 10 mm and 11.7 mm.

These data come from ChEMBL document CHEMBL1782021, “Synthesis of 2-aziridinyl phosphonates by modified Gabriel-Cromwell reaction and their antibacterial activities” (2011).
